Source: US20070021434A1, “NON-NUCLEOSIDE ANTI-HEPACIVIRUS AGENTS AND USES THEREOF” (Migenix Inc., priority 2005, published 2007)

Molecular target: HCV RdRp (NS5B) (UniProt P26663)
Experiment: RdRp assay with ELISA detection (Table 1)
Assay type: biochemical, hepatitis C virus
Settings: read-out: RdRp IC50

Row | Substance | IC50 [µM]
1 | (S)-{4-[(5-AMINO-1-P-TOLYLCARBAMOYL-PENTYLAMINO)-METHYL]-PHENYL}-CARBAMIC ACID | > 50
2 | (R)-4-[2-(S)-(2-AMINO-ACETYLAMINO)-ACETOXY]-2-P-TOLYLCARBAMOYL-PYRROLIDINE-1-CARBOXYLIC ACID 9H-FLUOREN-9-YLMETHYL ESTER | > 50
